Test results reported in patent publication US5756684.
Construct, isoform or probe ends are uncertain for at least one entry.

Chains of the proteins cited; added tags and fusions are not shown. Residues count along the entry.
UniProt Q00577, 1-314: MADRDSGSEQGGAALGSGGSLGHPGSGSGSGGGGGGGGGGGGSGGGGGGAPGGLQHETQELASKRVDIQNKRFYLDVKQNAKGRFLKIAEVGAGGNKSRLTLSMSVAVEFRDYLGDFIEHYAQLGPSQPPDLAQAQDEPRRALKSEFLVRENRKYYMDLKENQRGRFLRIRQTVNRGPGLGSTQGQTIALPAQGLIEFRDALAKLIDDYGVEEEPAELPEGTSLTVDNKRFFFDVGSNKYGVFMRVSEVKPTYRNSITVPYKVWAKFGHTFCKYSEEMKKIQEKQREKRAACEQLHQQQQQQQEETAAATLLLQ

Molecular target: GST-Pur-alpha 1-314 (Homo sapiens) (UniProt Q00577)
Test: EMSA
Conditions: acidic region removed; still shows binding enhancement by Tat; purified recombinant protein; protein details: N-terminal GST; label: 32P end; single-stranded DNA

GGAGGCGGAGGCGGAGGCGGAGGC [JCV+ (upTAR purine-rich strand dimer)]
binding result: binds
